Pooled drug test results. Numbers come from NIAID ChemDB, via PubChem.

All rows: growth or infection tests; organism: Candida albicans; endpoint: MIC

Rows are shuffled and stem from different studies.

compound	strain	read by	value
C[C@H]1[C@H](O)[C@@H](C)/C=C/C=C/C=C/C=C/C=C/C=C/C=C/[C@H](O[C@@H]2O[C@H](C)[C@@H](O)[C@H](N)[C@@H]2O)C[C@@H]2O[C@](O)(C[C@@H](O)C[C@@H](O)CC[C@H](O)[C@@H](O)C[C@@H](O)CC(=O)O[C@H]1C)C[C@H](O)[C@H]2C(=O)O	A25942 (amphotericin B-resistant)	-	4 µg/mL
Cc1c(Cl)[n+](=O)c2cc(Cl)ccc2n1[O-]	Clinical isolate 1	-	15.6 µg/mL
CC(=O)OC1CC(C)CCC1C(C)C	-	-	15.85 µM
O=C(Cc1ccc(F)cc1)Nc1cc([N+](=O)[O-])ccc1O	ATCC 10231	-	31.25 µg/mL
CCCCCOc1ccc(-c2ccc(-c3ccc(C(=O)N[C@H]4CCCNC(=O)[C@@H]5C[C@H](N)CN5C(=O)[C@H](CCCCN)NC(=O)[C@H](CCc5ccc(O)cc5)NC(=O)[C@@H]5C[C@@H](O)CN5C(=O)[C@H]([C@@H](C)O)NC4=O)cc3)cc2)cc1	ATCC 38247	-	0.78 µg/mL
CCCCCOc1ccc(-c2ccc(-c3ccc(C(=O)N[C@H]4CCCNC(=O)[C@@H]5C[C@H](NC(=O)OC)CN5C(=O)[C@H]([C@@H](C)O)NC(=O)[C@H](CCc5ccc(O)cc5)NC(=O)[C@@H]5C[C@@H](O)CN5C(=O)[C@H]([C@@H](C)O)NC4=O)cc3)cc2)cc1	ATCC 38247	-	1.25 µg/mL
CCCC[C@@H](C)/C=C(C)/C=C(\C)C(=O)N/C(=C/[C@@](C)(O)/C=C/C=C/C=C/C(=O)NC1=C(O)CCC1=O)C(=O)[C@@H]1CO1	1	broth dilution	25 µM
Cc1c(S(=O)(=O)c2ccccc2)[n+](=O)c2ccccc2n1[O-]	Clinical isolate 16	-	31.25 µg/mL
O=C(/C=C/c1cc(O)ccc1O)c1ccccc1	SDAU2	-	100 µg/mL
CN(CCCC#CC(C)(C)C)c1cccc2c1CCC(=O)N2	Clinical isolate 6	-	31.25 µg/mL
O=C(Nc1cc([N+](=O)[O-])ccc1O)c1ccccc1	ATCC 10231	-	31.25 µg/mL
CCCCCOc1ccc(-c2ccc(-c3ccc(C(=O)N[C@H]4CCCNC(=O)[C@@H]5C[C@H](CN)CN5C(=O)[C@H]([C@@H](C)O)NC(=O)[C@H](CCc5ccc(O)cc5)NC(=O)[C@@H]5C[C@@H](O)CN5C(=O)[C@H]([C@@H](C)O)NC4=O)cc3)cc2)cc1	ATCC 62376	-	0.78 µg/mL
C[C@H]1[C@H](O)[C@@H](C)/C=C/C=C/C=C/C=C/C=C/C=C/C=C/[C@H](O[C@@H]2O[C@H](C)[C@@H](O)[C@H](N)[C@@H]2O)C[C@@H]2O[C@](O)(C[C@@H](O)C[C@@H](O)CC[C@H](O)[C@@H](O)C[C@@H](O)CC(=O)O[C@H]1C)C[C@H](O)[C@H]2C(=O)O	ATCC 18804	broth dilution	0.09 µM
CCCCCOc1ccc(-c2ccc(-c3ccc(C(=O)N[C@H]4CCCNC(=O)[C@@H]5[C@H](N)CCN5C(=O)[C@H]([C@@H](C)O)NC(=O)[C@H](CCc5ccc(O)cc5)NC(=O)[C@@H]5C[C@@H](O)CN5C(=O)[C@H]([C@@H](C)O)NC4=O)cc3)cc2)cc1	ATCC 38247	-	0.1 µg/mL
Cc1ccc(C(O)c2cccc(C(O)CCn3ccnc3)c2)cc1	RTCC1024	broth dilution	>64 µg/mL
Nc1ccc(NC(=O)c2ccccc2)c(O)c1	ATCC 10231	-	125 µg/mL
CCCCCOc1ccc(-c2ccc(-c3ccc(C(=O)N[C@H]4CCCNC(=O)[C@@H]5C[C@H](N)CN5C(=O)[C@H]([C@@H](C)O)NC(=O)[C@H](CCc5ccccc5)NC(=O)[C@@H]5C[C@@H](O)CN5C(=O)[C@H]([C@@H](C)O)NC4=O)cc3)cc2)cc1	ATCC 38247	-	3.12 µg/mL
C[C@@H](N1CCN(c2ccc(OCC(F)(F)C(F)F)cc2)C1=O)C(O)(Cn1cncn1)c1ccc(F)cc1F	TIMM1756	-	<0.016 µg/mL
CCCCCOc1ccc(-c2ccc(-c3ccc(C(=O)N[C@H]4CCCNC(=O)[C@@H]5C[C@H](NC)CN5C(=O)[C@H]([C@@H](C)O)NC(=O)[C@H](CCc5ccc(O)cc5)NC(=O)[C@@H]5C[C@@H](O)CN5C(=O)[C@H]([C@@H](C)O)NC4=O)cc3)cc2)cc1	ATCC 38247	-	0.39 µg/mL
CC1CCC(C(C)C)C(OC(=O)CCl)C1	-	-	13.49 µM
OC(CCn1ccnc1)c1cccc(C(O)c2ccc(Br)cc2)c1	RTCC1024	broth dilution	>64 µg/mL
CCCCCCCCCOc1ccc(N2CCN(c3ccc(C(=O)N[C@H]4CCCNC(=O)[C@@H]5C[C@H](N)CN5C(=O)[C@H]([C@@H](C)O)NC(=O)[C@H](CCc5ccc(O)cc5)NC(=O)[C@@H]5C[C@@H](O)CN5C(=O)[C@H]([C@@H](C)O)NC4=O)cc3)CC2)cc1	ATCC 10231	-	0.2 µg/mL
[2H]c1ccc(COC[C@@H]2NC(=O)[C@@H]3C[C@@H](O)CN3C(=O)[C@H]([C@@H](C)O)NC(=O)[C@@H](NC(=O)c3ccc(-c4ccc(-c5ccc(OCCCCC)cc5)cc4)cc3)CCCNC(=O)[C@@H]3C[C@H](N)CN3C(=O)[C@H]([C@@H](C)O)NC2=O)cc1	ATCC 62376	-	>100 µg/mL
Cc1ccc(O)c(C(=O)/C=C/c2ccc(O)cc2O)c1	SDAU6	-	75 µg/mL
Nc1ccc(O)c(NC(=O)c2ccc(F)cc2)c1	ATCC 10231	-	15.6 µg/mL
C[C@@H](n1ccn(-c2ccc(OC(F)(F)C(F)F)cc2)c1=O)C(O)(Cn1cncn1)c1ccc(F)cc1F	TA	-	<0.016 µg/mL
CC1CCC(C(C)C)C(OC(=O)c2ccc([N+](=O)[O-])cc2[N+](=O)[O-])C1	-	-	8.91 µM
CCCCCOc1ccc(-c2ccc(-c3ccc(C(=O)N[C@H]4CCCNC(=O)[C@@H]5C[C@H](N)CN5C(=O)CNC(=O)C(CCc5ccc(O)cc5)NC(=O)[C@@H]5C[C@@H](O)CN5C(=O)[C@H]([C@@H](C)O)NC4=O)cc3)cc2)cc1	ATCC 62376	-	0.2 µg/mL
O=C(CCn1ccnc1)c1cccc(C(O)c2ccc(Cl)c(Cl)c2)c1	RTCC1024	broth dilution	64 µg/mL
CCCCCOc1ccc(-c2ccc(-c3ccc(C(=O)N[C@H]4CCCNC(=O)[C@@H]5C[C@H](N)CN5C(=O)[C@H](CCCN=C(N)N)NC(=O)[C@H](CCc5ccc(O)cc5)NC(=O)[C@@H]5C[C@@H](O)CN5C(=O)[C@H]([C@@H](C)O)NC4=O)cc3)cc2)cc1	ATCC 10231	-	0.39 µg/mL
Cc1c(Sc2ccccc2)[n+](=O)c2cc(Cl)ccc2n1[O-]	Clinical isolate 6	-	15.6 µg/mL
CC(C)(O)c1cn(-c2ccc(Cl)cc2)nn1	URM 4384	broth dilution	128 µg/mL
O=C(Cn1c(=O)oc2cc(C(=O)c3c(F)cccc3F)ccc21)c1ccccc1	ATCC 90028	-	128 µg/mL
CCC(=O)OC1CC(C)CCC1C(C)C	-	-	14.79 µM
O=C(Cn1c(=O)oc2cc(C(=O)c3cccc(F)c3)c(Cl)cc21)c1ccccc1	ATCC 90028	-	128 µg/mL
C[C@@H](N1CCN(c2ccc(OC(F)(F)F)cc2)C1=O)C(O)(Cn1cncn1)c1ccc(F)cc1F	TIMM1756	-	<0.016 µg/mL
Cc1ccc(C(=O)Cn2c(=O)oc3cc(C(=O)c4c(F)cccc4F)ccc32)cc1	ATCC 90028	-	128 µg/mL
CC1CCC(C(C)C)C(OC(=O)/C=C/c2ccc([N+](=O)[O-])cc2)C1	-	-	4.68 µM
O=C(Cn1c(=O)oc2cc(C(=O)c3cc(F)ccc3F)ccc21)c1ccc(Cl)cc1	ATCC 90028	-	128 µg/mL
OC(CCn1ccnc1)c1cccc(C(O)c2ccc(Cl)c(Cl)c2)c1	RTCC 1003	broth dilution	>64 µg/mL
Cc1ccc(C(=O)Cn2c(=O)oc3cc(C(=O)c4cc(F)ccc4F)ccc32)cc1	ATCC 90028	-	128 µg/mL
C[C@@H](n1ccn(-c2ccc(F)cc2)c1=O)C(O)(Cn1cncn1)c1ccc(F)cc1F	TA	-	<0.016 µg/mL
Cc1ccc(C(=O)Cn2c(=O)oc3cc(C(=O)c4cccc(F)c4)c(Cl)cc32)cc1	ATCC 90028	-	128 µg/mL
CCCCCCCCOc1ccc(N2CCN(c3ccc(C(=O)N[C@H]4CCCNC(=O)[C@@H]5C[C@H](N)CN5C(=O)[C@H]([C@@H](C)O)NC(=O)[C@H](CCc5ccc(O)cc5)NC(=O)[C@@H]5C[C@@H](O)CN5C(=O)[C@H]([C@@H](C)O)NC4=O)cc3)CC2)cc1	ATCC 38247	-	0.2 µg/mL

Blank or dashed fields: not listed here.